In the supplement of paper PMC3578754:
Fold change is the IC50 on the isolate divided by the IC50 on a reference virus; 1 = unchanged, higher = more resistant. Changes are given against the subtype B consensus. No active / inactive call. The values were gathered from many studies (numbered anew) with different assays, which the source does not name. Most viruses are clinical isolates; some are laboratory strains or clones with known resistance changes. Isolates with mixed residues are left out; stretches that were not sequenced show no change. Round top values that many isolates share are read here as limits; other very high values and 0.1 may be limits too.

Compound: Cc1cn([C@H]2C[C@H](N=[N+]=[N-])[C@@H](CO)O2)c(=O)[nH]c1=O [zidovudine]
Test: fold change of IC50 against reference virus; higher = more resistant
Protocol: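 Cell-culture drug susceptibility tests of virus bearing the reverse transcriptase of each isolate, gathered from many studies.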

Point of comparison: “HIV-1 isolate 1322 (reverse transcriptase changes: M41L D67N K70R K122E L210W F214L T215Y K219Q A272P K277R A376T A400T D460N S468T H483Y K512Q S519N, study 103)”, “fold change of IC50 against reference virus” value 340. Against it:
- HIV-1 isolate 215 (reverse transcriptase changes: M41L I135T E204K L210W T215Y I293V E297K D324P I329L A360V K431N V435A D460N S468P L491S, study 103) — higher, 400
- HIV-1 isolate 1008 (reverse transcriptase changes: M41L D67N K122E M184V H208Y L210W R211K T215Y A272P K277R I293V E297A R356K M357T G359S, study 34) — lower, 100
- HIV-1 isolate 507 (reverse transcriptase changes: K122E F214L T215Y A272P K277R A376T A400T D460N S468T H483Y K512Q S519N, study 103) — lower, 3
- HIV-1 isolate 1408 (reverse transcriptase changes: K102Q S162C T215Y K277R, study 1) — lower, 5
- HIV-1 isolate 437 (reverse transcriptase changes: K122E F214L A272P K277R M357T A376T A400T N447S D460N S468T S519N, study 81) — lower, 1
- HIV-1 isolate 258 (reverse transcriptase changes: D17N R83K T286A E297K D324N I329L A360T K431N D460N S468P L491S L517I, study 103) — lower, 1
- HIV-1 isolate 108 (reverse transcriptase changes: M41L D67N K70R K122E F214L T215F K219Q A272P K277R A376T A400T D460N S468T H483Y K512Q S519N, study 143) — lower, 51
- HIV-1 isolate 1031 (reverse transcriptase changes: D67N K70R K122E F214L T215Y K219Q A272P K277R A376T A400T D460N S468T H483Y K512Q S519N, study 3) — lower, 120
- HIV-1 isolate 1220 (reverse transcriptase changes: M41L D67N K70R K122E M184V F214L T215Y A272P K277R M357T, study 34) — lower, 7
- HIV-1 isolate 430 (reverse transcriptase changes: M41L K122E F214L A272P K277R A376T A400T D460N S468T H483Y K512Q S519N, study 103) — lower, 1.4
- HIV-1 isolate 421 (reverse transcriptase changes: M41L K70R K122E F214L T215Y A272P K277R A376T A400T D460N S468T H483Y K512Q S519N, study 143) — lower, 34
- HIV-1 isolate 1139 (reverse transcriptase changes: M41L K122E F214L T215Y A272P K277R A376T A400T D460N S468T H483Y K512Q S519N, study 3) — lower, 60
- HIV-1 isolate 423 (reverse transcriptase changes: M41L K122E F214L A272P K277R A376T A400T D460N S468T H483Y K512Q S519N, study 126) — lower, 4
- HIV-1 isolate 45 (reverse transcriptase changes: M41L K122E L210W F214L A272P K277R A376T A400T D460N S468T H483Y K512Q S519N, study 103) — lower, 5.2
- HIV-1 isolate 68 (reverse transcriptase changes: K122E F214L T215Y A272P K277R A376T A400T D460N S468T H483Y K512Q S519N, study 3) — lower, 16
- HIV-1 isolate 1044 (reverse transcriptase changes: W88S K122E F214L A272P K277R M357T A376T A400T N447S D460N S468T S519N, study 67) — lower, 1
- HIV-1 isolate 1605 (reverse transcriptase changes: K70R K122E F214L T215Y A272P K277R A376T A400T D460N S468T H483Y K512Q S519N, study 143) — lower, 6
- HIV-1 isolate 1376 (reverse transcriptase changes: D67N K70R K122E F214L T216F K219Q A272P K277R A376T A400T D460N S468T H483Y K512Q S519N, study 3) — lower, 150
- HIV-1 isolate 975 (reverse transcriptase changes: D67N K122E M184V G196E Q207D L210W R211K T215Y A272P K277R E300Q G333E T338S K347R R356K, study 34) — higher, 370
- HIV-1 isolate 290 (reverse transcriptase changes: M41L D67N K70R K122E F214L T215Y A272P K277R M357T, study 34) — lower, 200
- HIV-1 isolate 906 (reverse transcriptase changes: M41L D67N K70R E89K K122E F214L T215Y A272P K277R M357T A376T A400T N447S D460N S468T S519N, study 103) — lower, 1
- HIV-1 isolate 619 (reverse transcriptase changes: M41L K122E F214L T215Y A272P K277R A376T A400T D460N S468T H483Y K512Q S519N, study 72) — lower, 4.4
- HIV-1 isolate 1002 (reverse transcriptase changes: K102Q S162C T215Y, study 39) — lower, 16
- HIV-1 isolate 763 (reverse transcriptase changes: M41L K122E L210W F214L A272P K277R A376T A400T D460N S468T H483Y K512Q S519N, study 126) — lower, 5
- HIV-1 isolate 1392 (reverse transcriptase changes: M41L D67N K70R K122E M184V F214L T215Y A272P K277R A376T A400T D460N S468T H483Y K512Q S519N, study 126) — lower, 3
- HIV-1 isolate 954 (reverse transcriptase changes: M41L D67N K70R K122E F214L T215Y A272P K277R A376T A400T D460N S468T H483Y K512Q S519N, study 3) — lower, 180
- HIV-1 isolate 293 (reverse transcriptase changes: M41L K122E L210W F214L T215Y A272P K277R A376T A400T D460N S468T H483Y K512Q S519N, study 126) — lower, 107
- HIV-1 isolate 1620 (reverse transcriptase changes: K65R D67N K70R K122E F214L T215Y K219Q A272P K277R M357T A376T A400T N447S D460N S468T S519N, study 81) — lower, 1.3
- HIV-1 isolate 418 (reverse transcriptase changes: M41L K122E F214L T215Y A272P K277R A376T A400T D460N S468T H483Y K512Q S519N, study 126) — lower, 67
- HIV-1 isolate 505 (reverse transcriptase changes: W88G K122E F214L A272P K277R M357T A376T A400T N447S D460N S468T S519N, study 103) — lower, 0.2
- HIV-1 isolate 912 (reverse transcriptase changes: K122E F214L A272P K277R A376T A400T D460N S468T H483Y K512Q S519N, study 103) — lower, 1
- HIV-1 isolate 402 (reverse transcriptase changes: K70R K122E F214L A272P K277R A376T A400T D460N S468T H483Y K512Q S519N, study 143) — lower, 8
- HIV-1 isolate 626 (reverse transcriptase changes: D67N K70R K102Q S162C K277R, study 1) — lower, 2
- HIV-1 isolate 700 (reverse transcriptase changes: K122E F214L T215Y A272P K277R A376T A400T D460N S468T H483Y K512Q S519N, study 72) — lower, 4.4
- HIV-1 isolate 109 (reverse transcriptase changes: E6D M41L E44D D67N K70R D121H K122E I135T T165I D177E L210W R211K T215Y T286P I293V E297K T369I A376T T386I K390R A400T, study 103) — lower, 240
- HIV-1 isolate 937 (reverse transcriptase changes: K122E F214L A272P K277R A376T A400T D460N S468T H483Y K512Q S519N, study 143) — lower, 1
- HIV-1 isolate 661 (reverse transcriptase changes: D67N K70R K122E F214L T215Y K219Q A272P K277R M357T A376T A400T N447S D460N S468T S519N, study 81) — lower, 47.7
- HIV-1 isolate 924 (reverse transcriptase changes: M41L D67N K70R K122E F214L T215Y K219Q A272P K277R A376T A400T D460N S468T H483Y K512Q S519N, study 143) — lower, 180
